Measured values from several laboratories, pooled; numbers as filed in NIAID ChemDB.

Common to all: tests in culture; organism: HIV-1

Conditions beyond the fields shown may differ between rows. ECn is the concentration giving n% inhibition of infection, replication or growth. An empty or dashed field is not shown.

SMILES,strain or isolate,cell line,method,mutations,endpoint,result
Cc1cn([C@H]2C[C@H](N=[N+]=[N-])[C@@H](CO)O2)c(=O)[nH]c1=O,P022A (RT-WT),HT4 + HT4-6C,plaque count,-,EC50,0.01 µM
CC(=O)c1ccc(C)cc1NC(C(N)=O)c1c(Cl)cccc1Cl,Recombinant mutant,MT-4,cytopathic effect / MTT,RT-A98S,EC50,0.014 µM
N#Cc1cc2[nH]c3ccccc3c2n(-c2ccc([N+](=O)[O-])cc2)c1=O,Recombinant,HeLa,luciferase,RT-M41L A62V S68N G112S V118I M184V,EC50,6.14 µM
O=C(OCC1(COC(=O)c2cccnc2)CCCC(COC(=O)c2cccnc2)(COC(=O)c2cccnc2)C1O)c1cccnc1,LAV,MT-4,-,-,EC50,>100 µg/mL
O=C(CCNC(=O)C(=O)/C=C(\O)c1cccn1Cc1ccc(F)cc1)OC[C@@H]1CC[C@H](n2ccc(=O)[nH]c2=O)O1,LAI,CEM + CEM-SS,RT activity,-,EC50,>10 µM
C=C1[C@H](CO)[C@@H](O)C[C@@H]1n1cnc2c(=O)[nH]c(N)nc21,RES056,MT-4,MTT,-,EC50,0.043 µM
O=S1(=O)NC(Cc2ccc(Cl)cc2Cl)=CC(=NC2CCN(Cc3ccc(Br)cc3)CC2)N1,RES056,MT-4,MTT,RT-K103N Y181C,EC50,>97.9 µM
C#Cc1ccc(Nc2nccc(Oc3c(C)cc(-c4cn(Cc5ccc(C(N)=O)cc5)nn4)cc3C)n2)cc1,IIIB,MT-4,MTT,L100I,EC50,0.63 µM
CCC[C@@]1(CCc2ccccc2)CC(O)=C([C@H](CC)c2cccc(NS(=O)(=O)c3ccc(C(F)(F)F)cn3)c2)C(=O)O1,6 clinical isolates AZT-resistant,PBMC,p24,-,EC90,0.04 µM
Nc1ccn([C@H]2CC[C@@H](CO)O2)c(=O)n1,Recombinant mutant,MT-4,cytopathic effect / MTT,RT-A98S,EC50,1.137 µM
Cc1cn([C@H]2C=C[C@@H](CO)O2)c(=O)[nH]c1=O,HXB2,CD4+HELA + HeLa,plaque count,RT-V75T,EC50,3.4 ± 0.37 µM
Cc1c(O)cccc1C(=O)N[C@@H](CSc1ccccc1)[C@H](O)CN1C[C@H]2CCCC[C@H]2C[C@H]1C(=O)NC(C)(C)C,NL4-3,MT-4,p24,-,EC50,<0.025 µM
C#Cc1ccc(Nc2nccc(Oc3c(C)cc(-c4cn(Cc5ccc(C#N)cc5)nn4)cc3C)n2)cc1,IIIB,MT-4,MTT,L100I,EC50,>7.18 µM
O=S1(=O)NC(Cc2cccc3ccccc23)=CC(=NC2CCN(Cc3ccc(F)cc3)CC2)N1,IIIB,MT-4,MTT,-,EC50,29.78 µM
Cc1cn([C@H]2C[C@H](N=[N+]=[N-])[C@@H](CO)O2)c(=O)[nH]c1=O,NL4-3 WT,HeLa,luciferase,-,EC50,0.0164 µM
Nc1nc(=O)n([C@@H]2CS[C@H](CO)O2)cc1F,HXB2,CD4+HELA + HeLa,plaque count,-,EC50,0.085 ± 0.007 µM
O=S1(=O)NC(Cc2cccc3ccccc23)=CC(=NC2CCN(Cc3ccccc3)CC2)N1,IIIB,MT-4,MTT,-,EC50,117 µM
COC1=C(OC)C(=O)C(C/C=C(\C)CC/C=C(\C)CC/C=C(\C)CC/C=C(\C)CC/C=C(/C)CC/C=C(\C)CC/C=C(\C)CC/C=C(\C)CC/C=C(\C)CCC=C(C)C)=C(C)C1=O,LAV,MT-4,-,-,EC50,>100 µg/mL
C#Cc1ccc(Nc2nccc(Oc3c(C)cc(-c4cn(Cc5ccccc5[N+](=O)[O-])nn4)cc3C)n2)cc1,IIIB,MT-4,MTT,E138K,EC50,0.5 µM
Cn1c2ccccc2c2c1cc(C#N)c(=O)n2-c1ccc([N+](=O)[O-])cc1,NRTI resistant,HeLa,luciferase,RT-V75I F77L F116Y Q151M,EC50,0.0244 µM
CNC(=O)OCc1cccc(COC(=O)NC)n1,LAV,MT-4,-,-,EC50,>100 µg/mL
Cc1cc(C)c(CN2CCC(N=C3C=C(Cc4ccc(Cl)cc4Cl)NS(=O)(=O)N3)CC2)c(C)c1,IIIB,MT-4,MTT,-,EC50,>37.35 µM
C#Cc1ccc(Nc2nccc(Oc3c(C)cc(-c4cn(CCC(=O)OC)nn4)cc3C)n2)cc1,IIIB,MT-4,MTT,Y181C,EC50,3.37 µM
COc1ccc2c(c1)N(C(=O)OC(C)C)[C@@H](CSC)C(=S)N2,HXB2 (RT E138A S162C E169D T200A L214F) Clinical isolate,CEM,syncytia,RT-E138A S162C E169D T200A L214F,EC50,0.029 µM
C#Cc1ccc(Nc2nccc(Oc3c(C)cc(-c4cn(Cc5ccc(S(N)(=O)=O)cc5)nn4)cc3C)n2)cc1,IIIB,MT-4,MTT,K103N,EC50,0.1 µM
CC12CCC3C(CCC4CCCCC43C)C1CC(F)C2=O,IIIB,PBL(PHA-M) + PBL,p24 / ELISA,-,EC50,40 µM
C#Cc1ccc(Nc2nccc(Oc3c(C)cc(-c4cn(CCCC(=O)OC)nn4)cc3C)n2)cc1,IIIB,MT-4,MTT,F227L and V106A,EC50,>20.15 µM
O=C(CCNC(=O)C(=O)/C=C(\O)c1cccn1Cc1ccc(F)cc1)OC[C@@H]1C=C[C@H](n2ccc(=O)[nH]c2=O)O1,LAI,CEM + CEM-SS,RT activity,-,EC50,>10 µM
C#Cc1ccc(Nc2nccc(Oc3c(C)cc(-c4cn(-c5cccc(C(=O)OC)c5)nn4)cc3C)n2)cc1,IIIB,MT-4,MTT,L100I,EC50,0.47 µM
N#Cc1cccc(CN2CCC(N=C3C=C(Cc4cccc5ccccc45)NS(=O)(=O)N3)CC2)c1,RES056,MT-4,MTT,RT-K103N Y181C,EC50,>113 µM
Cc1cn([C@H]2C=C[C@@H](COC(=O)CNC(=O)C(=O)/C=C(\O)c3cccn3Cc3ccc(F)cc3)O2)c(=O)[nH]c1=O,IIIB,MT-4,RT activity,-,EC50,0.73 µM
CC(C)=CCN1Cc2cc(Cl)cc3[nH]c(=S)n(c23)C[C@@H]1C,Recombinant wild type,MT-4,cytopathic effect / MTT,-,EC50,0.087 µM
O=C(O)C(=O)CC(=O)c1cc(OCc2ccccc2)cc(OCc2ccccc2)c1,BaL,PBMC,RT activity,-,EC50,1.1 µM
CN=C1C[N+](O)=C(c2ccccc2)c2cc(Cl)ccc2N1,LAV,MT-4,-,-,EC50,>100 µg/mL
CCn1c(=O)c(C)cn([C@@H]2O[C@H](CO[Si](C)(C)C(C)(C)C)C3(OS(=O)(=O)C=C3N)[C@H]2O[Si](C)(C)C(C)(C)C)c1=O,IIIB WT,CEM,syncytia,-,EC50,0.049 µM

4 of the rows above, restated:

SMILES | strain or isolate | cell line | method | mutations | endpoint | result
O=C(OCC1(COC(=O)c2cccnc2)CCCC(COC(=O)c2cccnc2)(COC(=O)c2cccnc2)C1O)c1cccnc1 | LAV | MT-4 | - | - | EC50 | >100 µg/mL
Cn1c2ccccc2c2c1cc(C#N)c(=O)n2-c1ccc([N+](=O)[O-])cc1 | NRTI resistant | HeLa | luciferase | RT-V75I F77L F116Y Q151M | EC50 | 0.0244 µM
CC(=O)c1ccc(C)cc1NC(C(N)=O)c1c(Cl)cccc1Cl | Recombinant mutant | MT-4 | cytopathic effect / MTT | RT-A98S | EC50 | 0.014 µM
O=S1(=O)NC(Cc2cccc3ccccc23)=CC(=NC2CCN(Cc3ccc(F)cc3)CC2)N1 | IIIB | MT-4 | MTT | - | EC50 | 29.78 µM